{"source": "paper PMC9733292", "about": "“A bispecific, crosslinking lectibody activates cytotoxic T cells and induces cancer cell death” (2022)", "molecular_target": "CD3 receptor (CD3ε subunit of the T cell receptor complex) (human) (UniProt P07766)", "experiment": "flow cytometry on cells", "data": [{"substance": "Stx1B-scFv OKT3 lectibody", "values": [{"measurement": "percent of PBMCs positive for lectibody (35.6 nM), untreated control", "value": 49.8, "unit": "%"}]}]}
